Record: PubChem BioAssay AID1259414 (Drosophila RNAi Screening Center, 2018)
Purpose: 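Fly genes that alter Wolbachia amount inside host cells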 (primary screen). System: Drosophila JW18 cells infected with Wolbachia. Reagents: long dsRNA against Drosophila genes, 0.25 µg dsRNA per well of a 384-well plate. Time to read-out: 5 days. Challenge: cells persistently infected with Wolbachia before knock-down; no added drug. Measured: 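Imaged fluorescence in situ signal for Wolbachia 23S rRNA per DAPI-counted host cell, given as a robust z-score within each plate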. Direction: Wolbachia per cell robust z: higher = more Wolbachia per host cell than the plate typical. Call rule: 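Active if absolute robust z reaches 1.5 in two or more of three replicates, leaving out multi- or no-target dsRNAs, genes unexpressed in JW18 and A1 wells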.
The deposit covers about 24,000 reagents; below is a random part of those that have a named target and a result. Of all reagents, about 1,210 (5%) are marked active. 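Inactive calls also include excluded dsRNAs with several or no targets, genes unexpressed in JW18, and well A1, regardless of score.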 Names joined by + are all predicted targets of the reagent.

no.	gene	DRSC id	Wolbachia per cell robust z, rep 1	Wolbachia per cell robust z, rep 2	Wolbachia per cell robust z, rep 3	call
1	CG9698	DRSC16539	-3.13	-0.384	0.082	inactive
2	Ugt36A1	DRSC00748	-0.712	-1.48	0.32	inactive
3	Ugt36A1	DRSC29161	0.306	-1.32	0.661	inactive
4	Thor	DRSC00770	0.666	0.229	-0.57	inactive
5	mt:ND5	DRSC40576	0.22	-1.43	-0.3	inactive
6	CG31294	DRSC22217	-1.88	0.995	0.555	inactive
7	CG31294	DRSC26865	-0.735	0.131	-9.33	inactive
8	CG10576	DRSC09745	0.846	0.465	-3.99	inactive
9	Pgm1	DRSC10490	-0.263	-0.178	0.0268	inactive
10	Pgm1	DRSC28517	-0.478	-2.78	-0.45	inactive
11	CG3651	DRSC03730	-0.111	0.128	0.638	inactive
12	CG10562	DRSC14257	0.395	-0.515	0.927	inactive
13	CG10562	DRSC29099	0.706	-0.378	0.00484	inactive
14	Taf7	DRSC15445	-0.578	-0.172	0.782	inactive
15	Taf7	DRSC26720	-0.502	1.43	-0.11	inactive
16	Khc-73	DRSC07449	-0.483	-1.69	-1.2	inactive
17	Khc-73	DRSC26819	-0.111	0.482	-0.156	inactive
18	CG4734	DRSC06885	0.112	0.415	-0.0673	inactive
19	CG4734	DRSC22072	-0.445	-0.746	-0.633	inactive
20	CG9445	DRSC05006	0.543	-1.02	-0.0653	inactive
21	Gfrl	DRSC15196	1.44	0.572	-2.19	inactive
22	Gfrl	DRSC15197	0.671	0.741	-1.41	inactive
23	Gfrl	DRSC15199	0.142	0.424	0.127	inactive
24	Gfrl	DRSC15565	-0.263	0.592	-0.205	inactive
25	Gfrl	DRSC15719	0.188	0.461	0.501	inactive
26	Gfrl	DRSC25385	-0.51	-0.301	0.18	inactive
27	Gfrl	DRSC26132	-1.08	0.716	-1.36	inactive
28	Gfrl	DRSC27810	-1.36	-1.13	-1.17	inactive
29	Gfrl	DRSC28808	0.523	-0.119	-0.862	inactive
30	amx	DRSC23466	-2.23	-0.254	0.692	inactive
31	EndoU + CR31292	DRSC26161	-1.61	0.0862	-2.26	active
32	pths	DRSC03171	-9.55	-1.25	0.808	inactive
33	Alp11	DRSC20080	-0.914	-4.61	0.613	inactive
34	CG10621	DRSC02078	0.447	1.45	-2.28	inactive
35	LysD	DRSC26238	-0.798	0.459	-0.875	inactive

Not a retest: entries from further up.
no.	gene	DRSC id	Wolbachia per cell robust z, rep 1	Wolbachia per cell robust z, rep 2	Wolbachia per cell robust z, rep 3	call
6	CG31294	DRSC22217	-1.88	0.995	0.555	inactive
7	CG31294	DRSC26865	-0.735	0.131	-9.33	inactive
8	CG10576	DRSC09745	0.846	0.465	-3.99	inactive
9	Pgm1	DRSC10490	-0.263	-0.178	0.0268	inactive
10	Pgm1	DRSC28517	-0.478	-2.78	-0.45	inactive
11	CG3651	DRSC03730	-0.111	0.128	0.638	inactive
12	CG10562	DRSC14257	0.395	-0.515	0.927	inactive
13	CG10562	DRSC29099	0.706	-0.378	0.00484	inactive
14	Taf7	DRSC15445	-0.578	-0.172	0.782	inactive
15	Taf7	DRSC26720	-0.502	1.43	-0.11	inactive
16	Khc-73	DRSC07449	-0.483	-1.69	-1.2	inactive
17	Khc-73	DRSC26819	-0.111	0.482	-0.156	inactive
18	CG4734	DRSC06885	0.112	0.415	-0.0673	inactive
19	CG4734	DRSC22072	-0.445	-0.746	-0.633	inactive

The list goes on.
no.	gene	DRSC id	Wolbachia per cell robust z, rep 1	Wolbachia per cell robust z, rep 2	Wolbachia per cell robust z, rep 3	call
36	CG31344	DRSC16069	0.192	0.0901	-0.44	inactive
37	CG31344	DRSC29593	-1.04	-2.48	-0.0452	inactive
38	Ser12	DRSC00786	-0.314	1.07	-0.0234	inactive
39	CG11638	DRSC18167	-0.567	-0.784	-1.04	inactive
40	CG11638	DRSC18640	-1.54	-0.566	-0.932	inactive
41	alphaTub84B	DRSC12622	2.14	0.764	-0.144	inactive
42	alphaTub84B	DRSC25011	3.2	3.74	3.29	active
43	CG8138	DRSC16386	0.431	1.24	-4.77	inactive
44	Arpc3B	DRSC20126	-0.475	0.0638	-0.0935	inactive
45	Arpc3B	DRSC28523	-0.11	1.7	1.37	inactive
46	Cht9	DRSC04079	-1.67	1.34	0.0821	inactive
47	Cht9	DRSC24781	-1.53	-0.505	0.485	inactive
48	CG33639	DRSC19966	-3.48	-0.00258	-3.58	inactive
49	CG33639	DRSC22820	-0.263	0.0228	-0.527	inactive
50	CG33639	DRSC23778	0.904	0.217	0.428	inactive
51	CG33143	DRSC04151	1.35	1.04	1.1	inactive
52	CG33143	DRSC04454	0.921	1.04	0.558	inactive
53	CG33143	DRSC27587	0.534	0.0972	-0.27	inactive
54	Met75Ca + Met75Cb	DRSC09549	-0.514	-10.2	-0.685	inactive
55	Met75Ca + Met75Cb	DRSC11221	0.729	0.713	0.422	inactive
56	cnn	DRSC05422	-0.389	1.02	-1.09	inactive
57	cnn	DRSC07596	0.67	-3.04	-1.84	active
58	cnn	DRSC40804	0.707	0.116	0.574	inactive
59	CG6299 + CG6294	DRSC19980	-2.86	-0.0037	0.846	inactive
60	CG6299 + CG6294	DRSC27443	0.437	-4.87	0.907	inactive
61	CG14483	DRSC06455	-0.484	-5.42	-1.52	inactive
62	CG31327	DRSC13019	-2	-1.68	-1.22	inactive
63	CG5928	DRSC18391	-3.45	-1.55	-0.71	inactive
64	CG5928	DRSC25853	-0.55	0.913	-0.0358	inactive
65	CG14607	DRSC12551	0.481	0.257	-0.551	inactive
66	otu	DRSC18811	0.0348	-0.243	0.534	inactive
67	otu	DRSC27953	-0.412	0.611	-0.903	inactive
68	CG12945	DRSC14573	0.344	-7.43	0.363	inactive
69	CG12898	DRSC06213	-1.51	-2.12	-3.91	inactive
70	bbg	DRSC11077	0.645	-0.161	-0.4	inactive
71	bbg	DRSC11079	0.123	1.1	-0.334	inactive
72	bbg	DRSC25910	-1.54	-3	-1.24	active
73	bbg	DRSC27292	-1.67	-6.24	0.505	active
74	sphinx1	DRSC10993	0.562	-1.92	1.09	inactive
75	sphinx1	DRSC24818	0.733	-1.2	-0.248	inactive
76	TwdlN	DRSC25037	-0.266	1.58	0.688	inactive
77	CG13390	DRSC02261	0.413	1.16	-1.34	inactive
78	CG13390	DRSC24783	-0.0409	-0.478	-0.101	inactive
79	CG13390	DRSC39014	-1.08	-0.74	-0.515	inactive
80	CG11333	DRSC14301	-0.807	-4.49	-0.371	inactive
81	CG1637	DRSC18865	-0.542	-0.0633	-1.14	inactive
82	CG1637	DRSC19748	0.123	-0.426	-1.57	inactive
83	CG1637	DRSC19749	0.174	-3.95	-0.0684	inactive
84	CG1637	DRSC29080	0.217	0.431	-0.426	inactive
85	RpS8	DRSC16318	2.33	1.51	1.32	active
86	CG6908	DRSC16131	1.37	0.805	-5.93	inactive
87	CG6908	DRSC25403	0	-0.375	-0.666	inactive
